Compound potency records, mixed from different reports. Data source: NIAID ChemDB in PubChem.

All rows: tests in culture; species: HIV-1; read-out: EC50

ECn: concentration that inhibits the pathogen or its effect by n%.

smiles | cells | changes | read by | strain or isolate | result
[N-]=[N+]=N[C@H]1C[C@H](N2C(=O)NC(=O)/C2=C/c2ccccc2)O[C@@H]1CO | MT-4 |  | ELISA | IIIB | >100 µM
CC(=O)COc1cc(NC(=S)OC(C)C)ccc1Cl | CEM | RT-E138K | syncytia |  | 13.25 µM
CCc1c(Cc2cc(Cl)cc(Cl)c2)n(COC2CCc3ccccc32)c(=O)[nH]c1=O | MT-4 | RT-Y181C | cytopathic effect / MTT | NNRTI-resistant (RT Y181C) N119 | 0.3 µM
COc1c(Cl)cc(C(=CCCCCN[C@@H]2CC[C@]3(C)C4CC[C@@]5(C)C(CC[C@@H]5C(C)CCCC(C)C)C4CC[C@H]3C2)c2cc(Cl)c(OC)c(C(=O)O)c2)cc1C(=O)O | MT-4 |  | cytopathic effect / MTT | IIIB | >150 µM
CCCc1cc(=O)oc2c3c(c4c(c12)OC(C)(C)C=C4)O[C@H](C)C[C@@H]3O | MT-4 |  | p24 | IIIB | 4.65 µM
CC(C)OC(=O)c1cc(NC(=O)OCC2CC2)ccc1Cl | CEM |  | syncytia | IIIB | 1.443 µM
Cn1cc(C(=O)O)c(=O)c2cc(F)c(N3CC=C(c4ccccc4)CC3)c(C(F)(F)F)c21 | OM-10.1 |  | p24 |  | 0.04 µM
COc1ccc(C)cc1CS(=O)(=O)c1cccc[n+]1[O-] | CEM | RT-L100I | syncytia | IIIB | 40 µg/mL
CC(C)OC(=O)c1cc(NC(=S)OCC2(C)COC2)ccc1Cl | CEM | RT-V106A | syncytia |  | >29.94 µM
CCCc1cc(=O)oc2c3c(c4c(c12)OC(C)(C)CC4)O[C@@H](C)[C@H](C)[C@@H]3O | MM + M/M |  | p24 | BaL | 0.1 µM
CC(C)OC(=O)c1cc(NC(=S)N(C)C(C)C)ccc1Cl | CEM |  | syncytia | IIIB | >30.32 µM
Nc1ccn([C@H]2CC[C@@H](CO)O2)c(=O)n1 | MT-4 |  | MTT | Clinical isolate | 3.07 µg/mL
CCOC(=O)c1cc(NC(=S)OC(C)C)ccc1C | CEM | RT-V106A | syncytia |  | ≥35.54 µM
C#CCOCn1c(Cc2cc(Cl)cc(Cl)c2)c(CC)c(=O)[nH]c1=O | MT-4 | RT-K103N Y181C | cytopathic effect / MTT | NNRTI-resistant (RT K103N Y181C) A17 | 5 µM
COc1ccccc1N1CCN(c2c(F)cc3c(=O)c(C(=O)O)cn(C)c3c2CN(C)C)CC1 | PBMC |  | p24 | IIIB | 0.13 µM
CCc1c(Cc2cc(Cl)cc(Cl)c2)n(COC/C=C/c2ccccc2)c(=O)[nH]c1=O | MT-4 | RT-Y181C | cytopathic effect / MTT | NNRTI-resistant (RT Y181C) N119 | 3 µM
CC(C)(C)[Si](OC[C@H]1OC(N2C(=O)NC(=O)/C2=C/c2ccccc2)C[C@@H]1N=[N+]=[N-])(c1ccccc1)c1ccccc1 | MT-4 |  | ELISA | IIIB | >10 µM
COc1c(Cl)cc(C(=CCCNC(=O)C[C@H]2CC[C@]3(C)C4CC[C@@]5(C)C(CC[C@@H]5CC(=O)NCCC=C(c5cc(Cl)c(OC)c(C(=O)O)c5)c5cc(Cl)c(OC)c(C(=O)O)c5)C4CC[C@H]3C2)c2cc(Cl)c(OC)c(C(=O)O)c2)cc1C(=O)O | MT-4 |  | cytopathic effect / MTT | IIIB | 47 µM
Cc1ccccc1OC(=O)c1cc(NC(=S)OC(C)C)ccc1Cl | CEM | RT-V106A | syncytia |  | ≥27.48 µM
O=S(=O)(Cc1ccccc1I)c1cccc[n+]1[O-] | CEM | RT-Y181C | syncytia | IIIB | 20 µg/mL
CC(=O)c1c(C)nc(-c2ccccc2)nc1NC(=O)c1ccccc1 | HeLa |  | GFP / fluorescence | 52534-2 | >50 µM
CCN(CC)C(=S)SSC(=S)N(CC)CC | CEM-SS |  |  |  | >100 µM
CC(C)OC(=S)Nc1ccc(Cl)c(C(=O)OC(C(C)C)C(C)C)c1 | CEM | RT-E138K | syncytia |  | ≥2.689 µM
NCCS | CEM-SS |  | p24 |  | >100 µM
CCC(C)OC(=S)Nc1ccc(Cl)c(C(=O)OC(C)(C)C)c1 | CEM | RT-L100I | syncytia |  | 1.89 µM
Cc1ccnc2c1NC(=O)c1cccnc1N2C1CC1 | MT-4 | K103N | MTT |  | 6.039 µM
CC(C)OC(=S)Nc1ccc(Cl)c(C(=O)OC2CCCC2)c1 | CEM | RT-L100I | syncytia |  | 2.194 µM
CCN1c2nc(C(F)(F)F)ccc2NC(=O)c2cc(CCOc3cc[n+]([O-])c4ccccc34)cnc21 | C8166 |  | p24 | IIIB | 0.0016 µM
CCc1c(Cc2cc(Cl)cc(Cl)c2)n(COC/C(C)=C/c2ccccc2)c(=O)[nH]c1=O | MT-4 | RT-Y181C | cytopathic effect / MTT | NNRTI-resistant (RT Y181C) N119 | 2 µM
C[C@]12CCC3C(CC[C@H]4C[C@@H](CCC=C(c5cc(Cl)c(O)c(C(=O)O)c5)c5cc(Cl)c(O)c(C(=O)O)c5)CC[C@]34C)C1CC[C@@H]2CCC=C(c1cc(Cl)c(O)c(C(=O)O)c1)c1cc(Cl)c(O)c(C(=O)O)c1 | MT-4 |  | cytopathic effect / MTT | IIIB | 20 µM
CSCCOC(=S)Nc1ccc(Cl)c(C(=O)OC(C)C)c1 | CEM | RT-Y181C | syncytia |  | 17.25 µM
Cc1ccc(C)c(CS(=O)c2ccc(Cl)c[n+]2[O-])c1 | CEM |  | syncytia | RF | 10 µg/mL
CC(C)OC(=S)Nc1ccc(Cl)c(C(=O)OCc2ccccc2)c1 | CEM | RT-E138K | syncytia |  | 1.786 µM
CN1c2ccccc2C2C1C=C(C#N)C(=O)N2c1ccc([N+](=O)[O-])cc1 | HeLa |  | GFP / fluorescence | 7324-1 | 0.01 µM
COc1c(Cl)cc(C(=CCCCCN(C(=O)C=C(c2cc(Cl)c(OC)c(C(=O)O)c2)c2cc(Cl)c(OC)c(C(=O)O)c2)[C@H]2CC[C@]3(C)C4CC[C@@]5(C)C(CC[C@@H]5C(C)CCCC(C)C)C4CC[C@H]3C2)c2cc(Cl)c(OC)c(C(=O)O)c2)cc1C(=O)O | CEM + CEM-SS |  | cytopathic effect / MTT | IIIB | 9.9 µM
CC(C)OC(=O)c1cc(NC(=S)SC(C)C)ccc1Cl | CEM | RT-V106A | syncytia |  | >30.13 µM

For reference, 5 entries again:

{"smiles": "CC(C)(C)[Si](OC[C@H]1OC(N2C(=O)NC(=O)/C2=C/c2ccccc2)C[C@@H]1N=[N+]=[N-])(c1ccccc1)c1ccccc1", "cells": "MT-4", "read by": "ELISA", "strain or isolate": "IIIB", "result": ">10 µM"}
{"smiles": "C#CCOCn1c(Cc2cc(Cl)cc(Cl)c2)c(CC)c(=O)[nH]c1=O", "cells": "MT-4", "changes": "RT-K103N Y181C", "read by": "cytopathic effect / MTT", "strain or isolate": "NNRTI-resistant (RT K103N Y181C) A17", "result": "5 µM"}
{"smiles": "CC(C)OC(=S)Nc1ccc(Cl)c(C(=O)OCc2ccccc2)c1", "cells": "CEM", "changes": "RT-E138K", "read by": "syncytia", "result": "1.786 µM"}
{"smiles": "CCN1c2nc(C(F)(F)F)ccc2NC(=O)c2cc(CCOc3cc[n+]([O-])c4ccccc34)cnc21", "cells": "C8166", "read by": "p24", "strain or isolate": "IIIB", "result": "0.0016 µM"}
{"smiles": "CC(=O)COc1cc(NC(=S)OC(C)C)ccc1Cl", "cells": "CEM", "changes": "RT-E138K", "read by": "syncytia", "result": "13.25 µM"}

Conditions beyond the fields shown may differ between rows. An empty or dashed field is not shown.